Results published in PubChem BioAssay AID1903 (Southern Research Specialized Biocontainment Screening …, 2009).

Sequences of proteins named here, by UniProt entry; tags and fusion partners are left off.
UniProt P03070, whole entry: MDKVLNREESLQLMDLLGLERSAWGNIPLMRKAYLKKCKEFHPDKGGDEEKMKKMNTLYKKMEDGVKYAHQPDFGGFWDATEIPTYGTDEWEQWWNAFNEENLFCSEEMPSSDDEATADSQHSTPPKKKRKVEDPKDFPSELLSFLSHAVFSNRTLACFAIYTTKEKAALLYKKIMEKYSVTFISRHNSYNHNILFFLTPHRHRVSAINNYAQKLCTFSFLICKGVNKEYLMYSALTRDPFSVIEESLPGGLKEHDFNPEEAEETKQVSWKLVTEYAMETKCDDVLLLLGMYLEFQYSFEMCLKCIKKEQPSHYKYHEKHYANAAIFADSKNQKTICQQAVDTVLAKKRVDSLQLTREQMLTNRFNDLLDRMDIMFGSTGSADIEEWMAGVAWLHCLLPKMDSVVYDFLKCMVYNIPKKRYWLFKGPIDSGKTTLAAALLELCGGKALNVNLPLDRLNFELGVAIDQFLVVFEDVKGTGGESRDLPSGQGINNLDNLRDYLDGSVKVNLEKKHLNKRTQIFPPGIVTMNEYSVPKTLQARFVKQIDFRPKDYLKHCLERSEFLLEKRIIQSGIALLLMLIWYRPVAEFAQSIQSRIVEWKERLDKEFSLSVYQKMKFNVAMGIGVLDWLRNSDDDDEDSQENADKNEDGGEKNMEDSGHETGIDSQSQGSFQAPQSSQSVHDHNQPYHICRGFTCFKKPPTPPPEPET

Molecular target: Large T antigen (Simian virus 40) (UniProt P03070)
Experiment: TAg ATPase/helicase activity blockers – biochemical (AID 1903)
Conditions: SV40 large T antigen ATPase/helicase inhibition assay

Structure (SMILES)	IC50
CCOC(=O)N1CCC(Nc2ccc(OC)cc2)CC1	10.6 µM
COc1ccc(NC2CCN(C(=O)OC(C)(C)C)CC2)cc1	24.3 µM
